Measurements published in patent publication US20260007717A1 (priority 2022, published 2026).
Non-standard residues stand in square brackets, D forms with d. Residues, ends and D or L forms follow the SMILES beside them. Aib = CC(C)(N)C(=O)O

What was measured:
[1] = tested on: A. baumannii YQ4; experiment: Live/Dead SYTO-9 / propidium iodide staining, CLSM; format: cell-based, Acinetobacter baumannii; settings: COG1410 1×MIC, polymyxin B 5×MIC, 30 min
[2] = tested on: A. baumannii YQ4; experiment: RNA-seq transcriptome analysis; format: cell-based, Acinetobacter baumannii; settings: 0.25×MIC (4 μg/ml), M9 medium
[3] = tested on: A. baumannii YQ4; experiment: SEM and TEM cell morphology; settings: 1×MIC, 30 min, PBS

Row | Compound | SYTO-9 / PI staining of treated cells [1] | genes with decreased transcription level [2] | genes with increased transcription level [2] | significantly differentially expressed genes (at least 2-fold change) [2] | cell morphology by SEM [3] | cell morphology by TEM [3]
1 | CC(=O)N[C@@H](C)C(=O)N[C@@H](CO)C(=O)NC(C)(C)C(=O)N[C@@H](CC(C)C)C(=O)N[C@@H](CCCNC(=N)N)C(=O)N[C@@H](CCCCN)C(=O)N[C@@H](CC(C)C)C(=O)NC(C)(C)C(=O)N[C@@H](CCCCN)C(=O)N[C@@H](CCCNC(=N)N)C(=O)N[C@@H](CC(C)C)C(=O)N[C@@H](CC(C)C)C(N)=O [SEQ ID NO: 1, acetyl-AS-aib-LRKL-aib-KRLL-amide] (Ac-AS[Aib]LRKL[Aib]KRLL-NH2) | red fluorescence | 37 | 55 | 92 | intact, with few cell debris observed | wrinkled and smaller compared with untreated cells
2 | polymyxin B [reference compound] |  |  |  |  | cell lysis and release of cell contents | collapse of the cell walls in most cells
